Laboratory results: PubChem BioAssay AID1259414 (Drosophila RNAi Screening Center, 2018)

- Assay: 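Host factors increasing or decreasing Wolbachia levels in cultured fly cells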 (primary screen)
- System: Drosophila JW18 cells infected with Wolbachia
- Reagent: long dsRNA against Drosophila genes, 0.25 µg dsRNA per well of a 384-well plate
- Timing: 5 days
- Challenge: cells persistently infected with Wolbachia before knock-down; no added drug
- Read-out: 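Imaged fluorescence in situ signal for Wolbachia 23S rRNA per DAPI-counted host cell, given as a robust z-score within each plate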
- Reading the numbers: Wolbachia per cell robust z: higher = more Wolbachia per host cell than the plate typical
- Active means: 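Hit when robust z is 1.5 or more, or -1.5 or less, in at least two of three replicates; excludes dsRNAs with several or no targets, genes not expressed in JW18 and well A1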
The screen tested about 24,000 reagents; below is a random part of those with a known target gene and a result. In the full data, about 1,210 (5%) were called active. 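Inactive calls also include excluded dsRNAs with several or no targets, genes unexpressed in JW18, and well A1, regardless of score.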 Unmarked entries are inactive. A plus sign joins genes that one reagent is predicted to hit. No sequences are given here.

gene knocked down | amplicon | Wolbachia per cell robust z, rep 1 | Wolbachia per cell robust z, rep 2 | Wolbachia per cell robust z, rep 3
CG7065 | DRSC18420 | 1.14 | -0.375 | -0.0353
CG7065 | DRSC25280 | 0.712 | 0.248 | 0.902
Tmem63 | DRSC06063 | 1.02 | -0.206 | 1.82
Tmem63 | DRSC27402 | -1.32 | -0.668 | 0.0888
exu | DRSC07615 | -0.281 | 0.304 | -0.834
Stoml2 | DRSC04326 | 0.779 | -0.427 | -0.856
CG14034 | DRSC02359 | 0.0512 | 1.03 | -1.77
Pax | DRSC01703 | 0.00472 | 0.218 | -9.62
Pax | DRSC02651 | 0.328 | -0.322 | 0.117
Pax | DRSC02652 | 0.4 | -0.351 | -0.095
cher | DRSC16924 | -0.0773 | 1.3 | 0.11
cher | DRSC27625 | -0.943 | 1.33 | -0.249
cher | DRSC40768 | -0.0523 | 0.336 | 0.418
lectin-33A | DRSC02529 | -1.25 (active) | -3.21 | -2.31
lectin-33A | DRSC22116 | -0.115 | -0.495 | -0.556
Ccp84Aa | DRSC12586 | -0.62 | -0.372 | -0.382
Ccp84Aa | DRSC25114 | 0.347 | 0.0359 | 1.25
lin-52 | DRSC18106 | -4.51 | 0.155 | 0.657
Prps | DRSC08994 | -1.61 | -0.663 | 0.39
Prps | DRSC10707 | -1.92 | 0.971 | 0.441
Prps | DRSC10708 | 0.157 | 0.604 | 0.142
Mrp4 | DRSC14931 | 0.475 | -0.87 | -0.245
Mrp4 | DRSC28151 | 0.178 | 0.233 | -0.605
Adgf-B | DRSC10568 | -2.8 | -0.137 | -4.04
Adgf-B | DRSC24118 | 1.77 | 1.55 | 0.604
Torsin | DRSC18570 | -0.967 | 0.318 | 0.693
CG11970 | DRSC14157 | -0.769 | -0.446 | -4.46
CG8945 | DRSC20129 | 0.376 | -2.5 | 0.83
CG13408 | DRSC13534 | 0.397 | 1.33 | 0.536
CG13408 | DRSC14584 | 0.272 | -0.457 | 0.249
Kots | DRSC16581 | 0.329 | 0.638 | -1.89
Epp | DRSC14607 | -0.735 | -1.54 | 0.0303
Epp | DRSC29249 | -0.0679 | -0.943 | -0.434
Epp | DRSC41620 | -2.23 (active) | -2.59 | -0.261
lncRNA:cherub | DRSC36550 | 0.212 | 1.25 | 0.176
lncRNA:cherub | DRSC36551 | -0.225 | 1.14 | 0.185
lncRNA:cherub | DRSC36552 | 0.932 | -1.71 | 1.45
LBR | DRSC04298 | -0.384 | -0.0151 | 0.154
LBR | DRSC29462 | 0.0294 | -2.7 | 1.11
CG15708 | DRSC06579 | 0.147 | -0.413 | -0.617
CG43355 + sala | DRSC01188 | 0.0163 | 0.936 | 0.645
XNP | DRSC15594 | 0.397 | 0.716 | 0.697
XNP | DRSC27285 | -0.64 | -0.0727 | -0.0516
CG11723 | DRSC00324 | 1.16 | -0.27 | -1.28
CG11723 | DRSC24890 | 0.0137 | 0.267 | 0.304
CG31673 | DRSC03207 | -3.3 | -3.89 | -2.87
CG13323 | DRSC06360 | 0.123 | 0.286 | 0.932
Mau2 | DRSC15550 | 0.85 | -0.402 | 0.625
Stacl | DRSC05553 | 3.97 | 4.1 | 5.95
Stacl | DRSC06260 | 0.39 | 1.18 | -0.717
Stacl | DRSC06261 | -3.99 | 0.446 | 0.0492
Stacl | DRSC06777 | -4.98 | -4.71 | -1.09
Stacl | DRSC23019 | 0.557 | -4.62 | -0.871
Stacl | DRSC23183 | 0.403 | -0.0955 | 0.135
Stacl | DRSC25838 | -1.44 | -0.0543 | 0.242
drk | DRSC07606 | 0.017 | 0.304 | 1.6
drk | DRSC27911 | 1.48 (active) | 3.14 | 3.55
Tpi | DRSC16888 | -0.971 | -0.465 | -0.508
Tpi | DRSC40710 | 0.105 | -0.967 | -0.266
Uqcc1 + CG9948 | DRSC09690 | -7.35 | -1.11 | -0.0243
CCY | DRSC38633 | -0.0969 | 0.476 | 0.521
CCY | DRSC38773 | 2.12 | 0.302 | 0.0805
CCY | DRSC41432 | -2.65 | -1.85 | -0.748
Gycbeta100B | DRSC14039 | 1.05 | 0.58 | -0.316
Gycbeta100B | DRSC14040 | -0.0596 | 0.923 | 0.377
Gycbeta100B | DRSC16691 | -0.456 | 0.00824 | 0.461
Gycbeta100B | DRSC28797 | 0.42 | 0.455 | 0.0782
Or69a | DRSC11243 | -0.448 | 0.0134 | 0.738
Or69a | DRSC25967 | 0.244 | 0.06 | 0.0586

Copied from the list.
Adgf-B [DRSC24118], Wolbachia per cell robust z, rep 1 = 1.77
Mrp4 [DRSC14931], Wolbachia per cell robust z, rep 3 = -0.245
Result of Tmem63 [DRSC06063] under “Wolbachia per cell robust z, rep 1”: 1.02
Prps [DRSC10708], Wolbachia per cell robust z, rep 1 = 0.157
For “Wolbachia per cell robust z, rep 3”, CG11723 [DRSC24890] has 0.304
CG11723 [DRSC00324], Wolbachia per cell robust z, rep 1 → 1.16
